Molecular target: SARS-CoV receptor binding domain (SARS-CoV, UniProt P59594)
Assay: ELISA; mAb on sarbecovirus RBDs; EC50 of at least two independent experiments
Settings: both partners purified

B1: S2K146 human monoclonal antibody (antibody, V domains shown)
VH: QVQLVESGGVVVQPGGSLRLSCAASGFTFHDHTMHWVRQAPGKGLEWVSLITWNGGTIHYSDSVKGRFTISRDNSKNSLYLQMNSLRTEDTALYYCAKDLGRGGWYLPSDAWGQGTLVTVSS
VL: QSVLTQPPSASGTPGQRVTISCSGSSANIGSNTVNWYQHLPGTAPKLLIYSNNQRPSGVPDRFSGSKSGTSASLAISGLQSEDEADYYCAAWDDSLKGVFGGGTKLTVL
- binding result: binds
